Measurements reported in PMC10792529 (2023).

Biological target: D180A Ralstonia solanacearum Isocyanide Hydratase (Ralstonia solanacearum)
Assay: crystal structure; wild-type RsICH (0.74 Å) and D180A RsICH (1.00 Å)

D180A Ralstonia solanacearum Isocyanide Hydratase (enzyme)
stoichiometry N: 2
